Compound potency records, mixed from different reports. Data source: NIAID ChemDB in PubChem.

Common to all: cytotoxicity tests; cells: MT-4; measure: CC50

CCn is the concentration with n% toxicity to the cells. Neighbouring rows are from separate reports.

{"structure": "CN1C(=O)[C@]2(C[C@@H]2c2ccc(Cl)cc2)c2ccccc21", "method": "MTT", "value": "7.6 µg/mL"}
{"structure": "Cc1ccc(C(=O)Nc2cc(S(=O)(=O)O)ccc2S(=O)(=O)O)cc1NC(=O)c1cccc(NC(=O)Nc2cccc(C(=O)Nc3cc(C(=O)Nc4cc(S(=O)(=O)O)ccc4S(=O)(=O)O)ccc3C)c2)c1", "value": ">500 µg/mL"}
{"structure": "O=[N+]([O-])c1ccc(NC(=S)Nc2nc3ccccc3s2)cc1", "method": "MTT", "value": ">100 µM"}
{"structure": "O=C(COc1ccc2ccccc2c1)NCc1n[nH]c(=S)n1-c1ccccc1", "method": "MTT", "value": "20.2 µg/mL"}
{"structure": "Cc1[nH]c(=S)n(Nc2cccc(Cl)c2)c1C(=O)O", "value": "266 µM"}
{"structure": "Cc1ccnc2c1NC(=O)c1cccnc1N2C1CC1", "method": "MTT", "value": ">4 µg/mL"}
{"structure": "COc1cccc2c1nc(-c1ccccc1F)n2Cc1c(F)cccc1Cl", "value": "13.1 µg/mL"}
{"structure": "[N-]=[N+]=N[C@H]1C[C@@H](CO)O[C@H]1n1cnc2c(NC3CC3)ncnc21", "value": ">125 µg/mL"}
{"structure": "C=C(C)CNC(=S)Nc1nc2ccccc2s1", "method": "MTT", "value": "100 µM"}
{"structure": "CN(C)C(=O)C(=O)N(C)C1CN(C2CCCC2)CCn2c1nc(C(=O)NCc1ccc(F)cc1)c(O)c2=O", "method": "microscopy", "value": ">1 µM"}
{"structure": "CN(C)c1ncnc2c1ncn2[C@@H]1O[C@H](CO)C[C@@H]1N=[N+]=[N-]", "value": "80.7 µg/mL"}
{"structure": "Cc1ccc(C(=O)Nc2ccc(S(=O)(=O)O)c3cc(S(=O)(=O)O)cc(S(=O)(=O)O)c23)cc1NC(=O)c1cccc(C(=O)Nc2cc(C(=O)Nc3ccc(S(=O)(=O)O)c4cc(S(=O)(=O)O)cc(S(=O)(=O)O)c34)ccc2C)c1", "value": ">500 µg/mL"}
{"structure": "Cc1[nH]c(=S)n(Nc2cccc(F)c2)c1-c1ccccc1", "value": "108 µM"}
{"structure": "CC(=O)N[C@@H](CCC(N)=O)C(=O)N[C@@H](C)C(=O)N[C@@H](CC(C)C)[C@@H](O)CC(=O)N[C@H](C(=O)N[C@H](C(N)=O)C(C)C)C(C)C", "value": "1200 µM"}
{"structure": "CC(C)CN(C[C@@H](O)[C@H](Cc1cc(F)cc(F)c1)NC(=O)O[C@H]1CO[C@H]2OC[C@H](NC(C)C)[C@H]21)S(=O)(=O)c1ccc2nc(NC3CC3)sc2c1", "method": "WST", "value": "45.4 µM"}
{"structure": "O=C(NCc1ccc(F)cc1)c1nc2n(c(=O)c1O)CN1CCSC21", "method": "microscopy", "value": ">1 µM"}
{"structure": "COc1ccc(-c2cc(-c3ccccc3)c(C#N)c(=O)n2[C@@H]2O[C@H](COC(C)=O)[C@@H](OC(C)=O)[C@H](OC(C)=O)[C@H]2OC(C)=O)cc1", "method": "XTT", "value": ">15.8 µM"}
{"structure": "Cc1cc(C)nc(NS(=O)(=O)c2ccc(N=C3C(=O)N(CN4CCN(c5cc6c(cc5F)c(=O)c(C(=O)O)cn6C5CC5)CC4)c4ccccc43)cc2)n1", "method": "MTT", "value": "114.2 µM"}
{"structure": "CC(=O)OC[C@H]1O[C@@H](n2c(-c3ccc(C)cc3)cc(-c3ccco3)c(C#N)c2=O)[C@H](OC(C)=O)[C@@H](OC(C)=O)[C@@H]1OC(C)=O", "method": "XTT", "value": ">8.6 µM"}
{"structure": "Cc1[nH]c(=S)n(Nc2cccc(Cl)c2)c1C", "value": "259 µM"}
{"structure": "O=C(Nc1ccc(C(=O)Nc2ccc(P(=O)(O)O)cc2)cc1)Nc1ccc(C(=O)Nc2ccc(P(=O)(O)O)cc2)cc1", "value": ">500 µg/mL"}
{"structure": "CN1CC(=O)C(=O)C=C1Cn1cnc([N+](=O)[O-])c1Nc1ccccc1", "method": "MTT", "value": ">250 µM"}
{"structure": "CCN1C[C@H](C)N2C(=C(O)C3C(=O)N4Cc5ccc(F)cc5C(=O)NCCCCCCN(C)C(=N4)C32)C1=O", "value": "0.5 µM"}
{"structure": "Cc1cc(C#CCCO)cc(C)c1Oc1ccnc(Nc2ccc(C#N)cc2)n1", "method": "MTT", "value": "3.555 µM"}
{"structure": "CC(c1ccccc1)N1C(=O)CS/C1=N\\c1nc2ccccc2s1", "method": "MTT", "value": "84 µM"}
{"structure": "CCc1[nH]c(=S)n(Nc2cccc(Cl)c2)c1-c1ccccc1", "value": "38.96 µM"}
{"structure": "Cc1cc(C)nc(NS(=O)(=O)c2ccc(N=C3C(=O)N(CN4CCN(c5cc6c(cc5F)c(=O)c(C(=O)O)cn6C5CC5)CC4)c4ccc(F)cc43)cc2)n1", "method": "MTT", "value": "119 µM"}
{"structure": "CCC(Cc1cccc(NS(=O)(=O)c2ccc(NC(C)=O)cc2)c1)c1cc(O)c(C(c2ccccc2)C2CC2)c(=O)o1", "value": "170.4 µM"}
{"structure": "CC(CC(F)(OC(F)(F)C(F)(F)C(F)(F)F)C(F)(F)F)(C(=O)OCCOP(=O)([O-])O)C(F)(OC(F)(F)C(F)(F)C(F)(F)F)C(F)(F)F.[NH3+]CCO", "value": ">100 µg/mL"}
{"structure": "O=C1CS/C(=N\\c2nc3ccccc3s2)N1c1ccccc1Br", "method": "MTT", "value": "9 µM"}
{"structure": "Cc1ncn(Nc2cccc(Cl)c2)c1-c1cccc(Br)c1", "value": "16.41 µM"}
{"structure": "CC1(C)CC=C(c2cn(-c3nccc(C(=O)NC4CCC(N5CC6CCC(C5)O6)CC4)n3)c3ccc(F)c([C@H](OC(C)(C)C)C(=O)O)c23)CC1", "method": "luminescence", "value": "5.158 µM"}
{"structure": "O=C(COc1ccc2ccccc2c1)NCC(=O)NNC(=S)Nc1ccc(Cl)cc1", "method": "MTT", "value": "11.2 µg/mL"}
{"structure": "Cc1nc2ccccc2c(-c2cc(F)c3c(c2C)CCCO3)c1[C@H](OC(C)(C)C)C(=O)O", "method": "luminescence", "value": "10 µM"}
{"structure": "O=C(COc1ccc2ccccc2c1)NCc1n[nH]c(=S)n1-c1ccc(Cl)cc1", "method": "MTT", "value": "20.2 µg/mL"}
{"structure": "COc1c(N2CCN(CN3C(=O)C(=Nc4ccc(S(=O)(=O)Nc5nc(C)cc(C)n5)cc4)c4cc(F)ccc43)C(C)C2)c(F)cc2c(=O)c(C(=O)O)cn(C3CC3)c12", "method": "MTT", "value": "166.8 µM"}
{"structure": "CN1CC(=O)C(=O)C=C1Cn1cnc([N+](=O)[O-])c1Sc1ccccc1", "method": "MTT", "value": "23.6 µM"}
{"structure": "CC1(C)c2nc(C(=O)NCc3ccc(F)cc3)c(O)c(=O)n2CCN1Cc1ccccc1", "method": "microscopy", "value": ">1 µM"}
{"structure": "CC(CC(F)(OC(F)(F)C(F)(OC(F)(F)C(F)(F)C(F)(F)F)C(F)(F)F)C(F)(F)F)(C(=O)OCCOP(=O)(O)O)C(F)(OC(F)(F)C(F)(OC(F)(F)C(F)(F)C(F)(F)F)C(F)(F)F)C(F)(F)F", "value": ">100 µg/mL"}
{"structure": "Nc1nc2c(ncn2[C@@H]2O[C@H](CO)C3OC32)c(=O)[nH]1", "value": ">940 µM"}
{"structure": "O=C1CS/C(=N\\c2nc3ccccc3s2)N1c1cccc(C(F)(F)F)c1", "method": "MTT", "value": "67 µM"}
{"structure": "CC(=O)OC[C@H]1O[C@@H](n2c(-c3ccc(C)cc3)cc(-c3ccco3)c(C#N)c2=O)[C@H](OC(C)=O)[C@@H](OC(C)=O)[C@H]1OC(C)=O", "method": "XTT", "value": ">16.4 µM"}
{"structure": "[C-]#[N+][C@H]1C[C@H](n2ccc(=O)[nH]c2=O)O[C@@H]1CO", "value": "500 µM"}
{"structure": "CC(=O)SCCOP(=O)(OCCSC(C)=O)OC[C@@H]1C=C[C@H](n2cc(C)c(=O)[nH]c2=O)O1", "value": ">100 µM"}
{"structure": "CCN1C[C@H](C)N2C(=C(O)C3C(=O)N4Cc5ccc(F)cc5OCCCS(=O)(=O)N(C)C(=N4)C32)C1=O", "value": "3.3 µM"}
{"structure": "CN1CC(=O)C(=O)C=C1Cn1cnc([N+](=O)[O-])c1Nc1ccc(C#N)cc1", "method": "MTT", "value": ">250 µM"}
{"structure": "COc1ccc(-c2cc(-c3ccco3)c(C#N)c(=O)n2[C@@H]2O[C@H](COC(C)=O)[C@H](OC(C)=O)[C@H](OC(C)=O)[C@H]2OC(C)=O)cc1", "method": "XTT", "value": ">11.6 µM"}
{"structure": "Cc1cccc(N2C(=O)CSC2c2c(Cl)cccc2Cl)n1", "value": "242.2 µM"}
{"structure": "CC(CC(F)(F)C(F)(F)C(F)(F)F)(C(=O)OCCOP(=O)([O-])O)C(F)(F)C(F)(F)C(F)(F)F.[NH3+]CCO", "value": ">100 µg/mL"}
{"structure": "COc1cccc2c1nc(-c1ccccc1F)n2CC#N", "value": "110 µg/mL"}
{"structure": "CN1CCn2c(nc(C(=O)NCc3ccc(F)cc3)c(O)c2=O)C(N(C)S(=O)(=O)N(C)C)C1", "method": "microscopy", "value": ">1 µM"}
{"structure": "Cc1cc(C)cc(Nn2c(-c3ccccc3)c(C)[nH]c2=S)c1", "value": "194 µM"}
{"structure": "CN1CC(=O)C(=O)C=C1Cn1cnc([N+](=O)[O-])c1Nc1cccc(Cl)c1", "method": "MTT", "value": "5.5 µM"}
{"structure": "COc1c(N2CCN(CN3C(=O)C(=Nc4ccc(S(=O)(=O)Nc5nc(C)cc(C)n5)cc4)c4ccccc43)C(C)C2)c(F)cc2c(=O)c(C(=O)O)cn(C3CC3)c12", "method": "MTT", "value": "151.6 µM"}
{"structure": "CN1CCn2c(nc(C(=O)NCc3ccc(F)cc3)c(O)c2=O)C1CN(C)S(C)(=O)=O", "method": "microscopy", "value": ">10 µM"}
{"structure": "O=S(=O)(O)c1cc(Nc2ccnc3cc(Cl)ccc23)c2c(S(=O)(=O)O)cc(S(=O)(=O)O)cc2c1", "value": ">500 µg/mL"}
{"structure": "Cc1cc(/C=C2\\C(=O)Nc3ccc(S(=O)(=O)N(CC(C)C)C[C@@H](O)[C@H](Cc4ccccc4)NC(=O)O[C@H]4CO[C@H]5OCC[C@H]54)cc32)cc(C)c1O", "value": "100 µM"}
{"structure": "COc1cccc2c1nc(-c1ccccc1F)n2Cc1ccc2ccccc2c1", "value": ">4 µg/mL"}
{"structure": "N#Cc1c(-c2ccccc2)cc(-c2ccccc2)n([C@@H]2O[C@H](CO)[C@@H](O)[C@H](O)[C@H]2O)c1=O", "method": "XTT", "value": ">21.4 µM"}

Repeating the final 8 entries:

Cc1cc(C)cc(Nn2c(-c3ccccc3)c(C)[nH]c2=S)c1 ; value: 194 µM
CN1CC(=O)C(=O)C=C1Cn1cnc([N+](=O)[O-])c1Nc1cccc(Cl)c1 ; method: MTT ; value: 5.5 µM
COc1c(N2CCN(CN3C(=O)C(=Nc4ccc(S(=O)(=O)Nc5nc(C)cc(C)n5)cc4)c4ccccc43)C(C)C2)c(F)cc2c(=O)c(C(=O)O)cn(C3CC3)c12 ; method: MTT ; value: 151.6 µM
CN1CCn2c(nc(C(=O)NCc3ccc(F)cc3)c(O)c2=O)C1CN(C)S(C)(=O)=O ; method: microscopy ; value: >10 µM
O=S(=O)(O)c1cc(Nc2ccnc3cc(Cl)ccc23)c2c(S(=O)(=O)O)cc(S(=O)(=O)O)cc2c1 ; value: >500 µg/mL
Cc1cc(/C=C2\C(=O)Nc3ccc(S(=O)(=O)N(CC(C)C)C[C@@H](O)[C@H](Cc4ccccc4)NC(=O)O[C@H]4CO[C@H]5OCC[C@H]54)cc32)cc(C)c1O ; value: 100 µM
COc1cccc2c1nc(-c1ccccc1F)n2Cc1ccc2ccccc2c1 ; value: >4 µg/mL
N#Cc1c(-c2ccccc2)cc(-c2ccccc2)n([C@@H]2O[C@H](CO)[C@@H](O)[C@H](O)[C@H]2O)c1=O ; method: XTT ; value: >21.4 µM